According to patent US20210363204A1:

B1: NV1G1978 (peptide)
peptide: GPCRTIGPSVCAPAPAPAPAPQCQKWMQTCDRERKCCEGFVCTLWCRKKLW
modifications: not checked

What follows are binders tested against human Nav1.7 (sodium channel protein type 9 subunit alpha) (human), Q15858 (assay: cell-based or functional assay).

Compared with GPACQKWMQTCDRNRKCCEGFVCTLWCRKKLW (modifications not checked) [NV1G1728], GPQCQKWMQQCDRERKCCEGFVCTLWCRKKLW (modifications not checked) [NV1G1810] is 2.2-fold higher in Nav1.7 IC50 (nM), FLIPR Tetra: 9.4 nM for the first, 20.5 nM for the second.

GPQCQKWMQTCDRTRKCCEGFVCTLWCRKKLW (modifications not checked) [NV1G1818-NH2] and GPRCQKWMQTCDAKRKCCEGFSCTLWCRKKLW (modifications not checked) [NV1G1744] are within 1.5-fold of each other in Nav1.7 IC50 (nM), FLIPR Tetra: 20.5 nM for the first, 20.6 nM for the second.

GPYCQKWMQTCDAKRKCCEGFVCTLWCRKKLW (modifications not checked) [NV1G1747] and GPQCQKWMQTCDRRRKCCEGFVCTLWCKKKLW (modifications not checked) [NV1G1527] are the same in Nav1.7 IC50 (nM), FLIPR Tetra: 13 nM for the first, 13 nM for the second.

GPQCQKWMQTCTRERKCCEGFVCTLWCRKKLW (modifications not checked) [NV1G1820] and GPQCQKWMQTCDREKKCCEGFVCTLWCRKKLW (modifications not checked) [NV1G1811] are within 1.5-fold of each other in Nav1.7 IC50 (nM), FLIPR Tetra: 20.1 nM for the first, 20.4 nM for the second.

Going from GPQCQKWMQSCDRERKCCEGFVCTLWCRKKLW (modifications not checked) [NV1G1836] to GPYCQKWMQTCDRNRKCCEGFVCTLWCRKKLW (modifications not checked) [NV1G1763], the Nav1.7 IC50 (nM), FLIPR Tetra rises from 10.5 nM to 16 nM (1.5-fold).

Compared with GPQCQKWMQTCDRNRKCCEGFVCRLWCRKKLW (modifications not checked) [NV1G1511], GPQCQDWMQTCDRERDCCEGFVCTLWCRKKLW (modifications not checked) [NV1G1835] is 2.4-fold higher in Nav1.7 IC50 (nM), FLIPR Tetra: 13 nM for the first, 31.6 nM for the second.

Going from GPQCQEWMQTCDRERECCEGFVCTLWCRKKLW (modifications not checked) [NV1G1815] to GPQCQKWMQTCDRERKCCRGFVCTLWCRKKLW (modifications not checked) [NV1G1782], the Nav1.7 IC50 (nM), FLIPR Tetra falls from 64 nM to 30.3 nM (2.1-fold).

GPQCQKWMQTCDANRKCCEGFVCTLWCRKKLW (modifications not checked) [NV1G1231] and GPYCQKWMQTCDAKRKCCEGFSCTLWCRKKLW (modifications not checked) [NV1G1723] are within 1.5-fold of each other in Nav1.7 IC50 (nM), FLIPR Tetra: 32 nM for the first, 37 nM for the second.

Compared with GPQCQKWMQTCDRNRKCCEGFVCTLWCRKKLW (modifications not checked) [NV1G1267], GPAAAAAQCQKWMQTCDRERKCCEGFVCTLWCRKKLW (modifications not checked) [NV1G1990] is 3.1-fold higher in Nav1.7 IC50 (nM), FLIPR Tetra: 9.8 nM for the first, 30.3 nM for the second.

ACQCQKWMQTCDAERKCCEGFSCTLWCKKKLW (modifications not checked) [(-GP) N-Ac-NV1G1137] and GPSCQKWMQTCDAERKCCEGFSCRLWCKKKLW (modifications not checked) [NV1G1147] are within 1.5-fold of each other in Nav1.7 IC50 (nM), FLIPR Tetra: 28.6 nM for the first, 31 nM for the second.

GPACQKWMQTCDARRKCCEGFSCTLWCKKKLW (modifications not checked) [NV1G1720] and GPQCQKWMQTCDAERKCCEGFSCTLWCKKKLW (modifications not checked) [NV1G1137 (synthetic)] are within 1.5-fold of each other in Nav1.7 IC50 (nM), FLIPR Tetra: 23 nM for the first, 21.6 nM for the second.

Compared with GPACQKWMQTCDAERKCCEGFVCTLWCKKKLW (modifications not checked) [NV1G1734], GPYCQKWMQTCDANRKCCEGFSCRLWCKKKLW (modifications not checked) [NV1G1750] is 2.1-fold lower in Nav1.7 IC50 (nM), FLIPR Tetra: 44 nM for the first, 20.5 nM for the second.

First: GPQCQKWMQTCDARRKCCEGFVCRLWCKKKLW (modifications not checked) [NV1G1519]
Second: GPQCQKWMQTCDRKRKCCEGFVCRLWCKKKLW (modifications not checked) [NV1G1593]
The Nav1.7 IC50 (nM), FLIPR Tetra of the first is 2.7-fold lower: 4.03 nM for the first, 10.8 nM for the second.

Going from GPYCQKWMQTCDAERKCCEGFSCRLWCKKKLW (modifications not checked) [NV1G1738] to GPYCQKWMQTCDARRKCCEGFVCTLWCKKKLW (modifications not checked) [NV1G1718], the Nav1.7 IC50 (nM), FLIPR Tetra falls from 50.7 nM to 21 nM (2.4-fold).

First: GPRCQKWMQTCDARRKCCEGFSCRLWCKKKLW (modifications not checked) [NV1G1740]
Second: GPSCQKWMQTCDAERKCCEGFVCTLWCKKKLW (modifications not checked) [NV1G1145]
The Nav1.7 IC50 (nM), FLIPR Tetra of the first is 6.9-fold lower: 8.4 nM for the first, 58 nM for the second.

Compared with GPAPAPAPAPAPQCQKWMQTCDRERKCCEGFVCTLWCRKKLW (modifications not checked) [NV1G1986], QCQKWMQTCDRERKCCEGFVCTLWCRKKLW (modifications not checked) [(-GP) N-Ac-NV1G1153] is 1.8-fold lower in Nav1.7 IC50 (nM), FLIPR Tetra: 56 nM for the first, 30.4 nM for the second.

GPCRTIGPSVCAPAPAQCQKWMQTCDRERKCCEGFVCTLWCRKKLW (modifications not checked) [NV1G1979] and B1 are within 1.5-fold of each other in Nav1.7 IC50 (nM), FLIPR Tetra: 65.5 nM for the first, 60.3 nM for the second.

Work on GPDGPWRKMAPAPAPAPAPQCQKWMQTCDRERKCCEGFVCTLWCRKKLW (modifications not checked) [NV1G1977] yielded a Nav1.7 IC50 (nM), FLIPR Tetra of 53.6 nM.

Going from GPACQKWFQTCDAERKCCEGFVCRLWCKKKLW (modifications not checked) [Protoxin-II variant NV1D2921] to GPRCQKWFQTCDAERKCCEGFVCRLWCKKKLW (modifications not checked) [Protoxin-II variant NV1D2913], the hNav1.7 TETRA IC50 falls from 586 nM to 79.7 nM (7.4-fold).

Compared with GPSCQKWFQTCDAERKCCEGLVCRLWCKKKLW (modifications not checked) [Protoxin-II variant NV1D2918], GPQCQKWFQTCDAERKCCEGLVCRLWCKKKLW (modifications not checked) [Protoxin-II variant NV1D2910] is 2.2-fold lower in hNav1.7 TETRA IC50: 983 nM for the first, 441 nM for the second.

First: GPQCQKWFQTCDAERKCCEGFVCRLWCKKKLW (modifications not checked) [Protoxin-II variant NV1D2909]
Second: GPSCQKWFQTCDAERKCCEGFVCRLWCKKKLW (modifications not checked) [Protoxin-II variant NV1D2917]
The hNav1.7 TETRA IC50 of the first is 2-fold lower: 97.1 nM for the first, 197 nM for the second.

With GPACQKWFQTCDAERKCCEGLVCRLWCKKKLW (modifications not checked) [Protoxin-II variant NV1D2922] the hNav1.7 TETRA IC50 was 204 nM.
